Reference: PubChem BioAssay AID504761 (Drosophila RNAi Screening Center, 2011)
The deposit covers about 22,000 reagents; shown is an unselected part of those that have a named target and a result. Of all reagents, 116 (0.52%) were called active. 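Calls depend on retest data that are not deposited; infection was ranked per plate without normalising between plates; the unit of the infection score is not given.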 The raw values are shown without normalisation. The numbers tell different reagents against one gene apart. A plus sign joins genes that one reagent is predicted to hit. The record does not give: the amount of reagent, the time to read-out.

- Aim: 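Insect host genes that dengue virus relies on to spread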 (primary screen)
- System: D.Mel-2 cells from Drosophila
- Reagent: long dsRNA against Drosophila genes
- Conditions: infection with dengue virus type 2; dose and infection time not stated
- Measured: 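Cells stained for dengue envelope protein and imaged; percent of infected cells per well on duplicate plates, ranked by infection, with stained nuclei counted for cell number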
- Direction: infection score: higher = more virus-infected cells; cell count: higher = more cells in the well
- Hit rule: 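Very low infection ranking in both replicate wells (chance probability at most 0.065), then a retest showing infection dropped 1.5-fold or more at p below 0.05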
- Calls: active = confirmed: knock-down lowers infection; inactive = not picked or not confirmed

target	reagent no.	infection score, replicate 1	infection score, replicate 2	cell count, replicate 1	cell count, replicate 2	activity call
CG14187	1	4.4	3.17	6181	6489	inactive
CG14187	2	7.05	8.47	6399	6519	inactive
PpD3	1	0.42	3.7	6630	6159	inactive
CG5768	1	3.9	3.44	6437	6545	inactive
CG32115	1	3.91	4.59	6472	6149	inactive
Cad74A	1	2.39	16.6	6515	6439	inactive
CG15800	1	2.4	1.12	6362	6547	inactive
CG12641 (retired record)	1	2.25	7.35	6312	7003	inactive
CG16813	1	2.74	9.71	5510	6158	inactive
Plp	1	1.43	1.92	6435	6865	inactive
Plp	2	1.97	1.72	6544	6389	inactive
Plp	3	10.7	16.8	4989	5406	inactive
Sptz	1	3.35	11.3	6603	5002	inactive
Sptz	2	18.3	11.9	4915	6291	inactive
Irk3	1	12.2	11.2	4993	5173	inactive
sprt	1	30.6	5.57	5813	6628	inactive
endos	1	19.9	22.1	4636	4012	inactive
endos	2	9.85		4377	343	inactive
CG7755	1			343	413	inactive
Mipp2	1	1.94	4.72	5870	6425	inactive
CG5181	1	3.59	1.61	5455	5964	inactive
CG30398	1	0.47	0.18	6576	6177	inactive
gpp	1	10.1	9.16	5787	5810	inactive
gpp	2	8.07	1.88	3494	6800	inactive
CG32582 (retired record)	1	3.96	12.9	6314	5723	inactive
Regnase-1	1	14.3	2.65	6345	6650	inactive
UQCR-14 + CG32576	1	8.74	10.3	6536	6353	inactive
CG17325 + CG42305	1	7.05	5.99	6252	6490	inactive
CG7484	1	6.09	1.99	6007	6190	inactive

The list goes on; the last 2 above are carried over.
target	reagent no.	infection score, replicate 1	infection score, replicate 2	cell count, replicate 1	cell count, replicate 2	activity call
CG17325 + CG42305	1	7.05	5.99	6252	6490	inactive
CG7484	1	6.09	1.99	6007	6190	inactive
CG31924	1	1.93	2.33	6433	6514	inactive
CG34195	1	12.6	8.55	7070	6607	inactive
CG11470	1		4.31	407	1044	inactive
lncRNA:CR32690	1	5.03	6.16	6764	6513	inactive
lncRNA:CR32690	2	24.8	16.9	6194	6346	inactive
CG17359	1	1.61	7.3	5841	5509	inactive
CG17359	2	2.17	2.14	6356	6088	inactive
Prtl99C	1	4.66	5.13	5988	6740	inactive
BG642163	1	23.5	5.83	4552	6807	inactive
BG642163	2	7.6	7.14	6740	6612	inactive
CG17764	1	1.29	4.28	6574	6589	inactive
NtR	1	10.5	4.51	5834	6169	inactive
NtR	2	13.5	11	6277	6517	inactive
dib	1	7.87	5.78	5808	5969	inactive
dib	2	7.56	1.93	6189	6573	inactive
Tgs1 + moi	1	8.38	11.6	6145	6352	inactive
CG17974	1	12.3	26.1	5001	6760	inactive
Sardh	1	15.7	7.51	6150	5709	inactive
CG6276	1	22.1	11.3	4399	5951	inactive
CG6276	2	5.66	25.5	6133	5872	inactive
Vha16-2	1	5.97	8.73	5960	5901	inactive
Vha16-2	2	3.6	16.7	6279	5868	inactive
CG10970	1	5.55	1.62	6455	6486	inactive
CG13476	1	0.56	3.11	6112	6268	inactive
Klp67A	1	0.62	3.3	5454	5248	inactive
Klp67A	2	5.3	5.28	6042	5493	inactive
CG17601	1	7.79	3.19	5558	5646	inactive
orion	1	38.3	25.7	5573	3151	inactive
orion	2	2.21	1.44	3945	6373	inactive
